The target of this assay is SARS-CoV-2 3CLpro (Severe acute respiratory syndrome coronavirus 2, UniProt P0DTD1). As to the kind of experiment: biochemical. To be noted: read-out: Inhibition (%) @10 μM.

Consider `O=c1c(O[C@@H]2O[C@H](CO)[C@H](O)[C@H](O)[C@H]2O)c(-c2ccc(O)c(O)c2)oc2cc(O)cc(O)c12` [Hyperoside], for which the inhibition at 10 µM stood at 5.2%.

For orientation: inhibition means the change of the read-out against control, counted positive when it falls.

The record behind these values is PMC8206078, “Identification of pyrogallol as a warhead in design of covalent inhibitors for the SARS-CoV-2 3CL protease” (Nature Communications, 2021).
